Experimental data: article PMC3172200 (2011)

Columns and labels:
[1] = test system: binding of SEB to cell-surface CD28; assay: Binding of SEB to cell-surface CD28 (transfected 293-T cells, western blot); settings: 293-T cells transfected with CD28; 10 µg/ml peptide 1 h, then 15 µg/ml wt SEB 1 h; western blot with αSEB; three independent experiments
[2] = test system: IL2 and IFN-γ mRNA induction by TSST-1; assay: Induction of IL2 and IFN-γ mRNA in PBMC by TSST-1; settings: 10 µg/ml peptide
[3] = test system: induction of IL2 and IFN-γ mRNA by SEA; assay: Induction of IL2 and IFN-γ mRNA in PBMC by SEA; settings: 0.1 µg/ml peptide

## CC(C)C[C@H](NC(=O)[C@H](Cc1c[nH]cn1)NC(=O)[C@H](CCCCN)NC(=O)CNC(=O)[C@H](CCCCN)NC(=O)[C@@H](NC(=O)[C@H](Cc1c[nH]cn1)NC(=O)[C@@H](C)N)C(C)C)C(=O)N[C@@H](CS)C(=O)N1CCC[C@H]1C(=O)N[C@H](C)C(=O)O
[1]
  Block of binding of SEB to cells expressing CD28: block binding
[2]
  Inhibition of IL2 and IFN-γ mRNA induction by TSST-1: inhibited
[3]
  Inhibition of IL2 and IFN-γ mRNA induction by SEA: as sensitive as SEB
